# Data from US10004701B2, “Methods and compositions for treating infection” (UNIVERSITY OF ROCHESTER, priority 2012, dated 2018).
# How the values were obtained:
# Assay in all cases: AK assay 384-well format, Prestwick library screening
# E. faecium = assay type: cell-based, Enterococcus faecium; conditions: planktonic E. faecium; 50 μM final drug concentration; cutoff for positive-scoring molecules 3-fold increase
# [1] = system: S. aureus strain USA300-0114; assay type: cell-based, Staphylococcus aureus; conditions: planktonic S. aureus; 50 μM final drug concentration; cutoff for positive-scoring molecules 3-fold increase
# K. pneumoniae = assay type: cell-based, Klebsiella pneumoniae; conditions: planktonic K. pneumoniae; 50 μM final drug concentration; cutoff for positive-scoring molecules 3-fold increase
# [2] = system: A. baumannii strain 98-37-09; assay type: cell-based, Acinetobacter baumannii; conditions: planktonic A. baumannii; 50 μM final drug concentration; cutoff for positive-scoring molecules 3-fold increase
# P. aeruginosa = assay type: cell-based, Pseudomonas aeruginosa; conditions: planktonic P. aeruginosa; 50 μM final drug concentration; cutoff for positive-scoring molecules 3-fold increase
# E. cloacae = assay type: cell-based, Enterobacter cloacae; conditions: planktonic E. cloacae; 50 μM final drug concentration; cutoff for positive-scoring molecules 3-fold increase
# E. coli = assay type: cell-based, Escherichia coli; conditions: planktonic E. coli; 50 μM final drug concentration; cutoff for positive-scoring molecules 3-fold increase
structure (smiles),measurement,setting,value
NC(=O)Nc1ccc([As](=O)(O)O)cc1,"AK-based Prestwick Library Screening Results, E. faecium (increase in extracellular AK activity)",E. faecium,1.0
same,"AK-based Prestwick Library Screening Results, S. aureus (increase in extracellular AK activity)",[1],0.6
same,"AK-based Prestwick Library Screening Results, K. pneumoniae (increase in extracellular AK activity)",K. pneumoniae,0.5
same,"AK-based Prestwick Library Screening Results, A. baumannii (increase in extracellular AK activity)",[2],0.6
same,"AK-based Prestwick Library Screening Results, P. aeruginosa (increase in extracellular AK activity)",P. aeruginosa,0.6
same,"AK-based Prestwick Library Screening Results, E. cloacae (increase in extracellular AK activity)",E. cloacae,0.7
same,"AK-based Prestwick Library Screening Results, E. coli (increase in extracellular AK activity)",E. coli,0.6
